Measurements from patent US20130253179A1, “Functionalization Processes and Reactants Used in Such Processes Using an Isatoic Anhydride or a Derivative Thereof, Biological Molecules Thus Treated and Kits” (priority 2010, published 2013).

System: HIV WT transcript with 1083 nucleotides
Test: Functionalisation, capture, cleaving and elution of HIV WT transcripts (BioAnalyzer)

With `Cn1c(=O)oc(=O)c2cc(NC(=O)CCSSCCNC(=O)CCOCCOCCOCCOCCNC(=O)CCCCC3SCC4NC(=O)NC43)ccc21` (stereo not drawn) [5Biot PEG4 SS IA Me 24] the “Concentration of functionalised/captured and eluted transcript” value (Exp #2, 15 mM) was 7.6E+10 copies/μl, the “Total yield functionalisation/capture/elution of the HIV transcripts” value (Exp #2, 15 mM) was 9.303% and the “% RNA recovered after elimination of the excess of reagent 24” value (shortened to “% RNA recovered after elimination”) (Exp #2, Cf 15 mM) was 32%. The Capture rate (Exp #2, Cf 15 mM) was 77%, the elution rate (Exp #2, Cf 15 mM) was 40% and the overall yield (Exp #2, Cf 15 mM) was 10%. For the same molecule, the “Concentration of functionalised/captured and eluted transcript” value (Exp #3, 30 mM) was 1.4E+11 copies/μl, the “Total yield functionalisation/capture/elution of the HIV transcripts” value (Exp #3, 30 mM) was 17.14% and the “% RNA recovered after elimination” value (Exp #3, Cf 30 mM) was 34%. For the same molecule, the Capture rate (Exp #3, Cf 30 mM) was 100%, the elution rate (Exp #3, Cf 30 mM) was 53% and the overall yield (Exp #3, Cf 30 mM) was 18%. For the same molecule, the “Concentration of functionalised/captured and eluted transcript” value (Exp #4, 120 mM) was 1.0E+11 copies/μl, the “Total yield functionalisation/capture/elution of the HIV transcripts” value (Exp #4, 120 mM) was 12.49% and the “% RNA recovered after elimination” value (Exp #4, Cf 120 mM) was 31%. For the same molecule, the Capture rate (Exp #4, Cf 120 mM) was 100%, the elution rate (Exp #4, Cf 120 mM) was 45% and the overall yield (Exp #4, Cf 120 mM) was 14%. For the same molecule, the “Concentration of functionalised/captured and eluted transcript” value (Exp #5, 180 mM) was 9.8E+10 copies/μl, the “Total yield functionalisation/capture/elution of the HIV transcripts” value (Exp #5, 180 mM) was 12% and the “% RNA recovered after elimination” value (Exp #5, Cf 180 mM) was 30%. For the same molecule, the Capture rate (Exp #5, Cf 180 mM) was 100%, the elution rate (Exp #5, Cf 180 mM) was 43% and the overall yield (Exp #5, Cf 180 mM) was 13%.
